In PubChem BioAssay AID2315 (National Center for Advancing Translational Sciences (NCATS), 2010) one finds inhibition data, which are given here for 60 molecules.

This is a selection; strong and weak results do not stand in their true shares. Some salts and complexes are drawn in separate pieces, as the source files them; their charges need not balance. Active and inactive are the calls of the source. Cut-off read from the data, not from the text of the source: active = inhibition mostly above about 28% (no sharp cut-off); inactive = mostly below about 43%.

The experiment can be described thus: A qHTS for Small Molecule Inhibitors of Shiga Toxin. For inhibition: 0% is about no effect. The conditions noted are these: Vero cells, Shiga toxin protein synthesis inhibition reporter; at 38.7 µM, active compounds read high. A general note: qHTS replaces the single test concentration by a dilution series.
Turning to `CN1CCC(Nc2ccc(F)c(Cl)c2)CC1`, the inhibition (commonly the drop in the measured response relative to a control, in per cent) was inactive: 22.9%.

Regarding `CCOc1ncccc1C(=O)NCC1(N2CCOCC2)CCCCC1`, the inhibition is inactive: -9.61%.

Consider `O=C(O)C1(Nc2ccccc2)CCN(Cc2ccccc2)CC1`, for which the inhibition was inactive: 3.23%.

Turning to `CC(C)(C)OC(=O)N1CCC(Nc2ccccc2)CC1`, the inhibition is inactive: -12.4%.

On to `CCCOc1ccc(C(=O)NCC2(N(C)C)CCCCC2)cc1`, for which the inhibition was inactive: -15.1%.

Consider `COc1cccc(C(=O)N(c2cc(C)cc(C)c2)C2CCN(C(=O)OC(C)(C)C)CC2)c1`, for which the inhibition is inactive: 2.55%.

With `COc1cc(OC)cc(C(=O)NCC2(N3CCOCC3)CCCCC2)c1`, the inhibition is inactive: -12.8%.

Consider `CCC(CO)(C(=O)OC1CN2CCC1CC2)c1ccccc1` (stereo not given), for which the inhibition was inactive: -15%.

As to `CN1CCC(Nc2ccc(Cl)cc2)CC1`, the inhibition is inactive: -7.91%.

For `CCCOc1ccc(C)cc1CN(CCCl)CCCl`, the inhibition is inactive: -12.3%.

For the molecule `COc1cc(OC)cc(C(=O)NCC2(N3CCCCC3)CCCCC2)c1`, the inhibition was inactive: -19%.

In the case of `Fc1ccccc1NC1CCN(Cc2ccccc2)CC1`, the inhibition was inactive: -15.2%.

Consider `CCN1CCC(Nc2cccc(F)c2)CC1`, for which the inhibition was inactive: -13.9%.

With `CN(C)c1ccc(C(=O)NCC2(N3CCCCC3)CCCCC2)cc1`, the inhibition was inactive: -11.5%.

For the molecule `N#Cc1ccc(C(=O)NCC2(N3CCCCC3)CCCCC2)cc1`, the inhibition is inactive: -6.73%.

Take `CC(C)(C)OC(=O)N1CCC(N(C(=O)c2ccccc2)c2ccc(Cl)cc2)CC1`: the inhibition was inactive: -7.52%.

As for `CCOC(=O)C(CC)C1=NC(C)(C)Cc2ccccc21.O=[N+]([O-])c1cc([N+](=O)[O-])c(O)c([N+](=O)[O-])c1` (stereo not given), the inhibition is inactive: -1.61%.

With `CN(C)C1(CNC(=O)c2cccc(C#N)c2)CCCCC1`, the inhibition was inactive: -3.1%.

With `CCCN1CCC(Nc2cc(OC)cc(OC)c2)CC1`, the inhibition is inactive: -5.31%.

In the case of `c1ccc(CN2CCC(Nc3ccccc3)CC2)cc1`, the inhibition is inactive: -16.5%.

As for `COc1ccc(C(=O)NCC2(N3CCOCC3)CCCCC2)cc1OC`, the inhibition was inactive: -6.02%.

As for `CCOC(=O)N1CCC(Nc2ccc(C)cc2)CC1`, the inhibition is inactive: -0.925%.

For `N/C(=N\O)c1c(N)no[n+]1[O-]`, the inhibition was inactive: 6.39%.

As for `O=C(O)c1cccc(Nc2c([N+](=O)[O-])cc([N+](=O)[O-])cc2[N+](=O)[O-])c1`, the inhibition was inactive: 10.9%.

For the molecule `O=C(OC1CN2CCC1CC2)C1c2ccccc2C=Cc2ccccc21` (stereo not given), the inhibition is inactive: -6.06%.

Take `CC(C)c1ccc(NC2CCN(C(=O)OC(C)(C)C)CC2)cc1`: the inhibition result is “active”.

For the molecule `CN(C)c1cccc(C(=O)NCC2(N3CCCCC3)CCCCC2)c1`, the inhibition is inactive: -6.54%.

For `O=[N+]([O-])c1cc([N+](=O)[O-])c(OC2CCCCC2O)c([N+](=O)[O-])c1` (stereo not given), the inhibition is inactive: 1.56%.

As to `COc1ccc(CN(CCCl)CCCl)cc1Cl`, the inhibition is inactive: -2.76%.

On to `COc1cc(OC)c(C(=O)NCC2(N(C)C)CCCCC2)cc1OC`, for which the inhibition is inactive: -7.95%.

Regarding `O=C(OC1CN2CCC1CC2)c1ccc([N+](=O)[O-])cc1` (stereo not given), the inhibition is inactive: 24.7%.

For the molecule `COc1ccc2c(c1O)-c1c(O)c(OC)cc3c1[C@H](C2)[N+](C)(C)CC3.O=[N+]([O-])c1cc([N+](=O)[O-])c([O-])c([N+](=O)[O-])c1[O-]`, the inhibition was inactive: -5.68%.

Regarding `CCCOc1ccc(C(=O)NCC2(N(C)C)CCCCC2)cc1OC`, the inhibition is inactive: -11.2%.

Regarding `O=C(NCC1(N2CCCCC2)CCCCC1)c1ccc(OC(F)F)cc1`, the inhibition is inactive: -6.12%.

With `N#CC1(Nc2ccccc2)CCN(CCc2ccccc2)CC1`, the inhibition is inactive: -3.53%.

Turning to `CCN1CCC(Nc2ccc(Cl)cc2)CC1`, the inhibition was inactive: -4.97%.

Take `O=C(NCC1(N2CCCCC2)CCCCC1)c1cccc([N+](=O)[O-])c1`: the inhibition is inactive: -10.4%.

In the case of `O=[N+]([O-])c1cc([N+](=O)[O-])c(NCC2CCS(=O)(=O)C2)c([N+](=O)[O-])c1` (stereo not given), the inhibition is inactive: -20.9%.

Regarding `O=C(NCC1(N2CCCCC2)CCCCC1)c1cccc(C(F)(F)F)c1`, the inhibition was inactive: 10.2%.

On to `O=C(NCC1(N2CCOCC2)CCCCC1)c1cc(=O)[nH]c2ccccc12`, for which the inhibition was inactive: 1.44%.

With `COc1cc(C(=O)NCC2(N3CCCCC3)CCCCC2)ccc1OC(F)F`, the inhibition was inactive: -2.34%.

Take `COc1ccc(NC2CCN(C(=O)OC(C)(C)C)CC2)cc1`: the inhibition was inactive: 32.4%.

As for `CN1CCN(CCOC(=O)C(O)(c2ccccc2)c2ccccc2)CC1`, the inhibition is inactive: -3.95%.

On to `CCOc1ccc(C)cc1CN(CCCl)CCCl`, for which the inhibition is inactive: 10.4%.

Turning to `CCOC(=O)N1CCC(Nc2ccc(F)cc2)CC1`, the inhibition is inactive: -3.48%.

Take `COc1ccc(NC2CCN(CCc3ccccc3)CC2)c(OC)c1`: the inhibition is inactive: -13%.

With `O=C(NCC1(N2CCCCC2)CCCCC1)c1ccc(F)cc1`, the inhibition is inactive: -10.8%.

Turning to `Cc1ccc(OCC(C)C)c(CN(CCCl)CCCl)c1`, the inhibition is inactive: 10.8%.

Take `COc1cc(C(=O)NCC2(N(C)C)CCCCC2)ccc1OC(F)F`: the inhibition is inactive: -3.27%.

As for `CCOC(=O)N1CCC(Nc2cccc(C)c2)CC1`, the inhibition was inactive: 0.361%.

On to `COc1ccc(C(=O)NCC2(N3CCCCC3)CCCCC2)c(OC)c1OC`, for which the inhibition is inactive: 19.6%.

Consider `CC(C)(C)OC(=O)N1CCC(N(C(=O)c2ccccc2)c2ccc(F)cc2)CC1`, for which the inhibition was inactive: -4.37%.

`COc1ccc(C(=O)NCC2(N3CCCCC3)CCCCC2)cc1`: the inhibition is inactive: 0.847%.

`O=C(NCC1(N2CCCCC2)CCCCC1)c1ccc(=O)[nH]c1`: the inhibition is inactive: 7.1%.

With `CSc1ccccc1C(=O)NCC1(N2CCCCC2)CCCCC1`, the inhibition is inactive: -7.75%.

`Cc1cc(C)cc(N(C(=O)c2ccccc2)C2CCN(C(=O)OC(C)(C)C)CC2)c1`: the inhibition was inactive: -14.6%.

As for `O=C(NCC1(N2CCOCC2)CCCCC1)c1cc2ccccc2o1`, the inhibition is inactive: -20.9%.

Consider `O=C(OC1CN2CCC1CC2)C1c2ccccc2Oc2ccccc21` (stereo not given), for which the inhibition is inactive: -10.7%.

With `N#CC1(Nc2ccccc2)CCN(Cc2ccccc2)CC1`, the inhibition is inactive: -10.5%.

Take `CCOC(=O)N1CCC(Nc2ccc(OC)cc2)CC1`: the inhibition is inactive: -9.31%.
